Measured values from several laboratories, pooled; numbers as filed in NIAID ChemDB.

Common to all: tests in culture; agent: Rhinovirus

Conditions beyond the fields shown may differ between rows. Blank or dashed fields: not listed here. ECn is the concentration giving n% inhibition of infection, replication or growth.

smiles,read by,cells,measure,strain or isolate,result
Nc1ccn([C@@H]2C[C@@H](O)[C@H](CO)O2)c(=O)n1,-,KB,EC50,TYPE 5,>100 µM
COc1ccc(CNC(=O)c2c(O)cc(OCC=C(C)C)cc2OC)cc1,cytopathic effect,HeLa,EC50,TYPE 2,0.002 µg/mL
CC(C)S(=O)(=O)n1c(N)nc2ccc(/C(=N/O)c3ccccc3)cc21,plaque count,HeLa,EC50,Serotype 65,<0.01 µg/mL
OCCS,-,HeLa,EC50,-,<400 µM
CCOc1cc(O)c(C(=O)NCc2ccc(OC)cc2)c(OC)c1,cytopathic effect,HeLa,EC50,TYPE 2,0.002 µg/mL
C#CC[C@H](CC(=O)c1ccc(-c2ccccc2C(F)(F)F)[nH]1)C(=O)N[C@H](/C=C/C(=O)OCC)C[C@@H]1CCNC1=O,XTT,H1-HELA,EC50,Serotype 14,0.17 µM
Nc1ncnc2c1ncn2[C@@H]1C[C@@H](O)[C@H](CO)O1,-,KB,EC50,TYPE 5,>100 µM
COc1ccc(N2CCN(c3cccc(C)c3)CC2)nn1,cytopathic effect,HeLa,EC50,TYPE 9,0.005 µg/mL
CCO/N=C/c1ccc(OCCC2CCN(c3ccc(C)nn3)CC2)cc1,cytopathic effect / visual reading,MRC-5,EC50,TYPE 2,0.0002 µg/mL
Oc1ccc2oc3ccccc3c2c1,cytopathic effect,HELA-H1,EC50,TYPE 16,30 µM
N=C(N)CCNC(=O)C1CCC(N)=N1,-,-,MIC,TYPE 2,6 µg/mL
Cc1cc(O)c2c(c1)C(=O)c1cccc(O)c1C2=O,cytopathic effect,HEL,EC50,TYPE 2,>25 µg/mL
CCOc1cc(O)c(C(=O)/C=C/c2ccc(OC)cc2)c(OC)c1,cytopathic effect,HeLa,EC50,TYPE 9,0.063 µg/mL
CCO/N=C/c1ccc(OCCC2CCN(c3ccc(C)nn3)CC2)cc1,neutral red,KB,EC50,1794 (ICAM-1 receptor group 40),0.001 µM
Nc1ccn([C@@H]2C[C@H](CO)[C@@H](O)[C@H]2O)c(=O)n1,cytopathic effect,WI-38,EC50,TYPE 1A,>100 µg/mL
CCOC(=O)/C=C/[C@H](C[C@@H]1CCNC1=O)NC(=O)[C@@H](CC(=O)[C@@H](NC(=O)c1cc(C)on1)C(C)C)Cc1ccc(F)cc1,-,HeLa,EC50,-,0.013 µM
S=C(S)N1CCCC1,-,HeLa,EC50,TYPE 8,>31 µM
Cc1cc(CCCOc2c(C)cc(-c3nnn(C)n3)cc2C)on1,plaque count,HELA-OHIO,EC50,TYPE 1A,0.11 µM
C#CC[C@@H](C(=O)N[C@H](/C=C/C(=O)OCC)C[C@@H]1CCNC1=O)n1cccc(NC(=O)c2cc(C)on2)c1=O,cytopathic effect / XTT,H1-HELA,EC50,Serotype 9,0.079 µM
O=c1c2ccccc2ccc2ccccc12,cytopathic effect,HELA-H1,EC50,TYPE 14,30 µM
COc1cc(O)c(CC=C(C)C)c2c1C(=O)CC(c1ccc(O)cc1)O2,cytopathic effect,VERO,EC50,TYPE 14,6.6 µg/mL
Cc1cccc(N2CCN(c3ccc(Br)nn3)CC2)c1,cytopathic effect,HeLa,EC50,TYPE 9,0.13 µg/mL
NC(=O)c1nc(F)c[nH]c1=O,plaque count,HeLa,EC50,-,23 µg/mL
CC(=O)NC[C@@H](C=O)NC(=O)[C@H](Cc1ccccc1)NC(=O)[C@H](CC(C)C)NC(=O)OCc1ccccc1,-,H1-HELA,EC50,TYPE 14,2.4 µM
O=C(O)Cc1csc(/N=C2\SCC3Cc4ccccc4CN23)n1,-,-,MIC,TYPE 1B,0.15 µg/mL

The last 2 rows once more:

smiles,read by,cells,measure,strain or isolate,result
CC(=O)NC[C@@H](C=O)NC(=O)[C@H](Cc1ccccc1)NC(=O)[C@H](CC(C)C)NC(=O)OCc1ccccc1,-,H1-HELA,EC50,TYPE 14,2.4 µM
O=C(O)Cc1csc(/N=C2\SCC3Cc4ccccc4CN23)n1,-,-,MIC,TYPE 1B,0.15 µg/mL